Experimental data from paper PMC9876794 (2022).

Target: SARS-CoV-2 spike RBD (WT) (Severe acute respiratory syndrome …)
Assay: ELISA
Design: unit not given here

B1: D169 (antibody, V domains shown)
VH: QVQLVQSGAEVKKPGASVKVSCKASGYTFTGYYMHWVRQAPGQGLEWMGRINPNSGGTNYAQKFQGRVTMTRDTSISTAYMELSRLRSDDTAVYYCARDLFPHWYFDLWGRGTLVTVSS
VL: [about 100 residues not shown]TFGQGTKVEIK
B1 was tested, and the binding score was greater than 10000.
